Measurements taken from paper PMC3855555, “Mycobacterial MazG Safeguards Genetic Stability via Housecleaning of 5-OH-dCTP” (PLoS Pathogens, 2013).

Columns and labels:
Experiment in all cases: purified protein
Settings in all cases: pH 7.5; 37.0 °C
[1] = test system: Nc1ccn([C@H]2C[C@H](O)[C@@H](COP(=O)(O)OP(=O)(O)OP(=O)(O)O)O2)c(=O)n1
[2] = test system: Nc1nc(=O)n([C@H]2C[C@H](O)[C@@H](COP(=O)(O)OP(=O)(O)OP(=O)(O)O)O2)cc1O
[3] = test system: Nc1nc(O)nc2c1ncn2[C@H]1C[C@H](O)[C@@H](COP(=O)(O)OP(=O)(O)OP(=O)(O)O)O1
[4] = test system: Nc1ncnc2c1ncn2[C@H]1C[C@H](O)[C@@H](COP(=O)(O)OP(=O)(O)OP(=O)(O)O)O1
[5] = test system: O=Cc1cn([C@H]2C[C@H](O)[C@@H](COP(=O)(O)OP(=O)(O)OP(=O)(O)O)O2)c(=O)[nH]c1=O

In the case of “Mtb MazG (Mycobacterium tuberculosis H37Rv)”, the Km [1] is reported as 51 ± 14 µM, the kcat/Km [1] is reported as 1000 M⁻¹ s⁻¹ and the Km [2] is reported as 1.9 ± 0.3 µM. The kcat/Km [2] was 11300 M⁻¹ s⁻¹, the Km [3] was 2.4 ± 0.7 µM and the kcat/Km [3] was 13200 M⁻¹ s⁻¹. It also gave a Km [4] of 64 ± 23 µM, a kcat/Km [4] of 1500 M⁻¹ s⁻¹ and a Km [5] of 497 ± 140 µM. The kcat/Km [5] was 1830 M⁻¹ s⁻¹.
